Anti-infective test results gathered from many reports (values: NIAID ChemDB through PubChem).

All rows: tests on isolated targets; agent: HIV-1; protein: Reverse transcriptase; endpoint: IC50

a–b is a range or a potency band. ICn: concentration for n% inhibition. Blank or dashed fields: not listed here. Conditions beyond the fields shown may differ between rows.

structure,strain or isolate,mutations,method,value
CCN1c2ncc(CCOc3ccc(CC(=O)NN)c4ccccc34)cc2C(=O)N(C)c2ccc(Cl)nc21,WT,-,nucleotide incorporation / radiometric,<0.1 µM
CCc1cc(NCc2nc3c(C)ccc(C)c3o2)c(=O)[nH]c1C,-,RT-K103N,nucleotide incorporation,0.8319 µM
Oc1cc(O)c2c(c1)O[C@H](c1ccc(O)c(O)c1)[C@H](O)[C@H]2c1c(O)cc(O)c2c1O[C@H](c1ccc(O)c(O)c1)[C@H](O)[C@H]2c1c(O)cc(O)c2c1O[C@H](c1ccc(O)c(O)c1)[C@H](O)[C@H]2c1c(O)cc(O)c2c1O[C@H](c1ccc(O)c(O)c1)[C@H](O)C2,-,-,nucleotide incorporation,>20 µg/mL
CCN1c2ncc(CCOc3ccc(-c4ccc(CC(=O)O)cc4)cc3C)cc2-c2ncc(C)n2-c2cccnc21,-,RT-K103N Y181C,nucleotide incorporation / radiometric,0.05–0.1 µM
COc1cc(CNC(=O)c2[nH]c3ccc(Cl)cc3c2Sc2ccccc2)ccn1,-,-,nucleotide incorporation,0.003–0.035 µM
O=C(OCC1O[C@@H](O)C(O)(COC(=O)c2cc(O)c(O)c(O)c2)C1OC(=O)c1cc(O)c(O)c(O)c1)c1cc(O)c(O)c(O)c1,-,-,nucleotide incorporation,>20 µg/mL
CCN1c2ncc(CCOc3cccc4c3CS(=O)(=O)N4Cc3cc[n+]([O-])cc3)cc2-c2ncc(C)n2-c2cccnc21,-,-,nucleotide incorporation / radiometric,<0.05 µM
CCN1c2ncc(CCOc3ccc(CCC(=O)O)c4c3CCCC4)cc2C(=O)N(C)c2ccc(Cl)nc21,-,RT-K103N Y181C,nucleotide incorporation / radiometric,0.1–1 µM
Nc1cc(CNC(=O)c2[nH]c3ccc(Cl)cc3c2S(=O)(=O)c2ccccc2)ccn1,-,-,nucleotide incorporation,0.003–0.035 µM
O=C(OC1[C@H](O)CC(O)(C(=O)O)C[C@H]1O)c1cc(O)c(O)c(O)c1,-,-,nucleotide incorporation,>20 µg/mL
O=C(N[C@@H](CO)c1ccccc1)c1[nH]c2ccc(Cl)cc2c1S(=O)(=O)c1ccccc1,-,-,nucleotide incorporation,0.003–0.035 µM
O=C(O)C1=C[C@@H](O)[C@@H](O)[C@H](OC(=O)c2cc(O)c(O)c(OC(=O)c3cc(O)c(O)c(O)c3)c2)C1,-,-,nucleotide incorporation,>20 µg/mL
CCN1c2ncc(CCOc3cccc4c3CNC(=O)N4)cc2-c2nc(C)cn2-c2cccnc21,-,-,nucleotide incorporation / radiometric,<0.05 µM
O=C(OC1[C@H](OC(=O)c2cc(O)c(O)c(O)c2)CC(OC(=O)c2cc(O)c(O)c(O)c2)(C(=O)O)C[C@H]1OC(=O)c1cc(O)c(O)c(O)c1)c1cc(O)c(O)c(O)c1,-,-,nucleotide incorporation,>10 µM
CCN1c2ncc(CCOc3ccc(C(=O)O)c4ccccc34)cc2-c2ncc(C)n2-c2cccnc21,-,RT-K103N Y181C,nucleotide incorporation / radiometric,>0.1 µM
O=C1OCC2OC(=O)c3cc(O)c(O)c(O)c3-c3c(O)c(O)c(O)c4c3C(=O)OC(C2OC(=O)c2cc(O)c(O)c(O)c2-c2c1cc(O)c(O)c2O)C1OC(=O)c2c-4c(O)c(O)c(O)c2C1c1c(O)cc(O)c2c1O[C@H](c1ccc(O)c(O)c1)C(O)C2,-,-,nucleotide incorporation,>20 µg/mL
CCN1c2ncc(CCOc3cccc4c3CS(=O)(=O)N4CC(=O)O)cc2-c2nccn2-c2c(C)ccnc21,-,-,nucleotide incorporation / radiometric,<0.05 µM
O=C(O[C@@H]1O[C@@H]2COC(=O)c3cc(O)c(O)c(O)c3-c3c(cc(O)c(O)c3O)C(=O)O[C@@H]3[C@H]1OC(=O)c1cc(O)c(O)c4c1[C@@H]1C5(CC(=O)C(O)(O[C@]56C(=O)O[C@@H]5[C@@H](O)COC56O)[C@]1(O)O4)C(=O)O[C@@H]32)c1cc(O)c(O)c(O)c1,-,-,nucleotide incorporation,>20 µg/mL
CCN1c2ncc(CCOc3cccc4c3CNS4(=O)=O)cc2-c2ncc(C)n2-c2cccnc21,-,RT-K103N Y181C,nucleotide incorporation / radiometric,<0.05 µM
CCN1c2ncc(CCOc3ccc(C(=O)O)c4c3CCCC4)cc2C(=O)N(C)c2ccc(F)nc21,-,RT-Y188L,nucleotide incorporation / radiometric,0.1–1 µM
Cn1cnc(CNC(=O)c2[nH]c3ccc(Cl)cc3c2S(=O)(=O)c2ccccc2)c1,-,-,nucleotide incorporation,0.003–0.035 µM
C=C1c2cc(CCOc3ccc(NS(C)(=O)=O)c4ccccc34)cnc2N(CC)c2ncccc2N1C,WT,-,nucleotide incorporation / radiometric,<0.1 µM
CCN1c2ncc(CCOc3cccc4c3ccc[n+]4[O-])cc2C(=O)Nc2c(C)cc(Cl)nc21,-,RT-Y188L,nucleotide incorporation / radiometric,3.938 µM

Repeating the final 3 entries:

structure | strain or isolate | mutations | method | value
Cn1cnc(CNC(=O)c2[nH]c3ccc(Cl)cc3c2S(=O)(=O)c2ccccc2)c1 | - | - | nucleotide incorporation | 0.003–0.035 µM
C=C1c2cc(CCOc3ccc(NS(C)(=O)=O)c4ccccc34)cnc2N(CC)c2ncccc2N1C | WT | - | nucleotide incorporation / radiometric | <0.1 µM
CCN1c2ncc(CCOc3cccc4c3ccc[n+]4[O-])cc2C(=O)Nc2c(C)cc(Cl)nc21 | - | RT-Y188L | nucleotide incorporation / radiometric | 3.938 µM